This experiment has as its target T1, SARS-CoV-2 spike glycoprotein, full-length, prefusion-stabilised, on MDCK-SIAT1 cells (SARS-CoV-2, reference sequence, UniProt P0DTC2, 986KV987 to 986PP987 | 682RRAR685 to 682GSAG685).
T1 construct: also called MDCK-Spike
The experiment is described as follows: flow cytometry on cells. The note with it: one partner purified. For orientation: A flow cytometer gives signals particle by particle.

B1: FD 5D (antibody, V domains shown)
VH: EVQLVESGGGLVQPGGSLRLSCAASGFTFSSYSMNWVRQAPGKGLEWVSYISSSSSTIYYADPVKGRFTISRDNAKNSLYLQMNSLRAEDTAVYYCASPGGITAAGTSVLFGYYGMDVWGQGTMVTVSS
VL: not shown
notes: source: HEK293T, transfected; culture supernatant or purified
As to B1, the binding result is given as “binds”.

Source of the values: PMC8130932 (PLoS Pathogens, 2021).
